In the supplement of paper PMC9931576:
Human monoclonal antibodies against the spike receptor-binding domain (heavy:light variable regions). IC50 against pseudoviruses bearing the spike of naturally observed variants; lower = stronger; >10 µg/ml means not reached at the top dose. No active / inactive call. The stated detection limit is 0.0005 µg/ml; values near or below 0.001 µg/ml lie at the floor of the assay.

B1: BD56-133 (protein)
chain 1: QVQLVQSGAEVKKPGASVKVSCKASGYSFSGYYMFWVRQAPGQGLEWMGRINPNNGGTDYAQKFEDRVTLTRDTSINTAYMELSRLRSDDTAVYYCAREPGYDILTDSYRDYWGQGTLVIVSS
chain 2: EIVMTQSPATLSVSPGEGATLSCRASQSVSSSLAWYQQKPGQAPRLLIYGASARATGIPARFSGSGSGTEFTLTISSLQSEDFTFYYCLQYNSWPPWTFGPGTKVEVK
B2: BD56-117 (protein)
chain 1: QVQLVESGGGVVRPGRSLRLSCAASGFTFSNYGMHWVRQAPGKGLEWVAVISDDGTYKSYADSVKGRFTISRDNSKNTLYLQFNSLRAEDTAVYYCARDEAETLMVTWFDYWGQGTLVTVSP
chain 2: DIQMTQSPSSLSASVGDRVTITCRASQSVNRYLNWYQQKPGKAPKLLIYASSNLHSGVPSRFSGSGSGTDFTLTISSLQPEDFATYYCQQSYNTPPWTFGQGTKVEVK
B3: DH1179 (protein)
chain 1: QVQLVESGGGVVQPGRSLRLSCAASGFTFTNNAMHWVRQAPGKGLEWVAVISYDGSNRYYADSVKGRFTISRDNSKNTLYLQMNSLRAEDTAVYYCAREDYYDSSGSFDHWGQGILVTVSS
chain 2: QSALTQPASVSESPGQSITISCTGTSSDVGGYNYVSWYQQHPGKAPKLMTYDVSNRPSGVSNRFSGSKSGNTASLTISGLQAEDEADYYCSSYSSSSTWVFGGGTKLTVL
B4: BD56-138 (protein)
chain 1: QVQLVQSGTEVKKPGASVKISCKASGYTFTNYALHWVRQAPGQRLEWMGWINAGNGGTKHSEKFQGRVTITRDTSASTAYMELSGLRPEDTALYYCARGPLIVGPKEVDFDYWGQGTLVIVSS
chain 2: SYVLTQPPSVSVAPGKTARMTCGGNEIGSKSVHWYQQKPGQAPALVIYYDNDRPSGIPERFSGSNSGNTATLTISRVEAGDEADYYCQVWDSSTVIFGGGTKLTVL
B5: BD56-143 (protein)
chain 1: QVQLVQSGAEVRKPGASMKVTCKASGYTFTNYAIHWVRQAPGQRLEWMGWINAGNGGTKHSEKFQGRVTISRDTSASTAYMELSGLRSADTAVYYCARGPLVVGPKEVDFDYWGRGTLVIVSS
chain 2: SYVLTQPPSVSVAPGRTARMTCGGYEIGSKSVHWYQQKPGQAPALVIYYDSERHSGIPERFSGSNSGNTATLTISRVEAGDEADYYCQVWDSSTVVFGGGSKLTVL
B6: BD56-116 (protein)
chain 1: EVQLVESGGGLVQPGGSLRLSCAASGFTFSNYDMHWVRQVTGKGLEWVSTIGTAGDTYYSDSVKGRFTISRDNVKKSLYLQMKSLRAGDTAVYYCARGSSESVVTLFDHWGQGAQVTVSS
chain 2: DIQMTQSPSSLSASIGDRVIITCRASQSISRYLNWYQQKPGKAPELLIYSASTLQDGVPSRFSGSGSGTDFTLTISSLQPEDFATYYCQQSYTNPSITFGQGTRLEIK
B7: BD56-144 (protein)
chain 1: QVQLQESGPGLVKPSQTLSLTCTVSGDSIERGGYYWSWIRQHPGMGLEWIGYIYYSGSTYQNPSLKSRVTISVDTSKNQFSLRLSSVTAADTAVYYCARVVDTSAQLDPWGQGTLVSVSS
chain 2: QSVLTQPPSVSAAPGQKVTVSCSGSSSNIGINSLSWYQQLPGTAPKLLIYDDNKRPSGIPDRFSGSKSGTSATLGISGLQTGDEADYYCGTWDDSLSAAVFGGGTKLTVL
B8: BD56-126 (protein)
chain 1: QVTLKESGPVLVKPTETLTLTCTVSGFSLSNSRMGVSWIRQPPGKALEWLAHIFSNDEKSYRTSLKTRLTISKDTSKSQVVLTMTNMDAVDTATYYCARFLEGAWPGSGENWFDSWGQGSLVTVSS
chain 2: SYELTQPPSVSVSPGQTARIACSAGAFPNLYAYWYQQKPGQAPVLVMYKDTERPSGIPERFSGSSSGTTVTLTISGVQAEDEADYYCQSADSSGVVFGGGTRLTVL
B9: BD56-119 (protein)
chain 1: EVQLLVSGGGLVQPGGSLRLSCAASGFTFSSCAMTWVRQAPGKGLECVSVIYGGGNSTYYADSVKGRFTIYRDTSKNRLYLQMNSLRADDTAIYYCAKSPQPRTTLELRGAPDYFDFWGQGTLVSVSS
chain 2: SYVLTQPPSVTVAPRQTARVTCGGDDIGSKSVHWYQQKPGQAPVLVIYYDNDRPSGIPERFSGSNSGNTATLTISRVEAGDEADYYCQVWDGSSAHFWVFGGGTKLTVL
B10: BD56-110 (protein)
chain 1: QVQLVESGGGVVQPGRSLRLSCAASGFTFSSHAMHWVRQAPGKGLEWVAVILNDGTYKDYGDSVKGRFTISRDNSKNTLYLQMNSLRVEDTAVYYCARDYGDYVTWFDSWGQGTLVSVSS
chain 2: DIQMTQSPSSLSASIGDRVTITCRASQSIRRDLNWYQQKPGNAPKLLIYSASSLQSGVPSRFSGSGSGTEFTLSISSLQPEDLATYYCQQSYNTPPWTFGQGTKVEVK
B11: BD56-115 (protein)
chain 1: QVQLVQSGAEVKKPGSSVKVSCKASGGTFSSHPISWVRQAPGQGLEWMGRVIPILGIANYAQKFQARVAITADKSTSTAYMELSRLRSDDTAVYYCARDVGYSDSGSSYYFDYWGQGILVTVSS
chain 2: QSVLTQPPSVSGAPGQRVTVSCTGSSSNIGAGYDVHWYQQLPGAAPKLLIYRNNNRPSGVPDRFSGSKSGTSASLAITGLQAEDEAAYYCQSYDSSLSASVFGGGTKLTVL
B12: DH1186 (protein)
chain 1: QVQLVQSGAEVKKPGSSVKVSCKASGGTFSNYAINWVRQAPGQGLEWMGRIIPIFGIANYAQEFQGRVTITADKSTSTVYMELSSLRSEDTAVYYCARANYYYESSGYYFDYWGQGTLVTVSS
chain 2: EIVLTQSPGTLSLSPGERATLSCRASQSVSSSFLAWYQQKPGQAPRLLIYGASSRATGIPDRFSGSGSGTDFTLTISRLEPEDFAVYYCLQYGSSRTFGQGTKVEIK

target: SARS-CoV-2 Omicron BA.1 spike pseudovirus; test: pseudovirus neutralization IC50; higher = weaker neutralization
Description: (§1)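 Single-round VSV luciferase pseudovirus mixed with antibody dilutions for 1 h and put on Huh-7 cells for about a day; IC50 from the dose curve.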

Binder	pseudovirus neutralization IC50
B1	3.12 µg/mL
B2	> 10 µg/mL
B3	> 10 µg/mL
B4	> 10 µg/mL
B5	> 10 µg/mL
B6	> 10 µg/mL
B7	> 10 µg/mL
B8	> 10 µg/mL
B9	> 10 µg/mL
B10	0.972 µg/mL
B11	0.688 µg/mL
B12	> 10 µg/mL

target: SARS-CoV-2 Omicron BA.2 spike pseudovirus; test: as above
Description: as §1

Binder	pseudovirus neutralization IC50
B1	2.92 µg/mL
B2	> 10 µg/mL
B3	> 10 µg/mL
B4	> 10 µg/mL
B5	> 10 µg/mL
B6	> 10 µg/mL
B7	> 10 µg/mL
B8	> 10 µg/mL
B9	> 10 µg/mL
B10	0.903 µg/mL
B11	0.75 µg/mL
B12	> 10 µg/mL

target: SARS-CoV-2 Omicron BA.2.75 spike pseudovirus; test: as above
Description: as §1

Binder	pseudovirus neutralization IC50
B1	> 10 µg/mL
B2	> 10 µg/mL
B3	> 10 µg/mL
B4	> 10 µg/mL
B5	> 10 µg/mL
B6	> 10 µg/mL
B7	> 10 µg/mL
B8	> 10 µg/mL
B9	> 10 µg/mL
B10	0.968 µg/mL
B11	0.556 µg/mL
B12	> 10 µg/mL

target: SARS-CoV-2 Omicron BA.5 spike pseudovirus; test: as above
Description: as §1

Binder	pseudovirus neutralization IC50
B1	> 10 µg/mL
B2	> 10 µg/mL
B3	> 10 µg/mL
B4	> 10 µg/mL
B5	> 10 µg/mL
B6	> 10 µg/mL
B7	> 10 µg/mL
B8	> 10 µg/mL
B9	> 10 µg/mL
B10	0.856 µg/mL
B11	> 10 µg/mL
B12	> 10 µg/mL

target: SARS-CoV-2 Omicron BQ.1.1 spike pseudovirus; test: as above
Description: as §1

Binder	pseudovirus neutralization IC50
B1	> 10 µg/mL
B2	> 10 µg/mL
B3	> 10 µg/mL
B4	> 10 µg/mL
B5	> 10 µg/mL
B6	> 10 µg/mL
B7	> 10 µg/mL
B8	> 10 µg/mL
B9	> 10 µg/mL
B10	1.89 µg/mL
B11	> 10 µg/mL
B12	> 10 µg/mL

target: SARS-CoV-2 Omicron XBB spike pseudovirus; test: as above
Description: as §1

Binder	pseudovirus neutralization IC50
B1	> 10 µg/mL
B2	> 10 µg/mL
B3	> 10 µg/mL
B4	> 10 µg/mL
B5	> 10 µg/mL
B6	> 10 µg/mL
B7	> 10 µg/mL
B8	> 10 µg/mL
B9	> 10 µg/mL
B10	2.12 µg/mL
B11	7.28 µg/mL
B12	> 10 µg/mL

target: SARS-CoV-2 early D614G spike pseudovirus; test: as above
Description: as §1

Binder	pseudovirus neutralization IC50
B1	0.518 µg/mL
B2	> 10 µg/mL
B3	0.0199 µg/mL
B4	> 10 µg/mL
B5	> 10 µg/mL
B6	7.58 µg/mL
B7	> 10 µg/mL
B8	> 10 µg/mL
B9	> 10 µg/mL
B10	0.81 µg/mL
B11	1.12 µg/mL
B12	0.0106 µg/mL
